Pooled drug test results. Numbers come from NIAID ChemDB, via PubChem.

Common to all: whole-cell or culture tests; organism: Hepatitis C virus; read-out: EC50

Neighbouring rows are from separate reports. ECn is the concentration giving n% inhibition of infection, replication or growth. a–b is a range or a potency band.

Cn1c(=O)cc(Sc2ccc(N)cc2)c2cccnc21 ; cell line: Huh-Luc-Neo ; method: luciferase / replicon ; result: <1 µM
CO[C@@H]1[C@H](O)[C@@H](/C=C/P(=O)(O)O)O[C@H]1n1ccc(N)nc1=O ; method: replicon ; result: >100 µM
CCC[C@H](NC(=O)[C@@H]1C2CCCC2CN1C(=O)[C@@H](NC(=O)[C@@H](NC(=O)c1cnccn1)C(C)CC)C(C)(C)C)C(=O)C(=O)NC1CC1 ; cell line: Huh7 ; method: replicon ; result: 1.2 µM
CCCCOC(=O)[C@H](C)NP(=O)(/C=C/[C@@H]1C[C@@H](O)[C@H](n2nnc3c(N)ncnc32)O1)N[C@@H](C)C(=O)OCCCC ; method: replicon ; result: <10 µM
CCc1ccc2c(c1)c(Sc1ccc(N)cc1)cc(=O)n2C ; cell line: Huh-Luc-Neo ; method: luciferase / replicon ; result: <1 µM
O=C(Nc1ccc(C2SC(=Nc3cccc(F)c3)N(CC3CCS(=O)(=O)C3)C2=O)cc1)[C@H]1CCCN1C(=O)OCc1ccccc1 ; cell line: Huh7 ; method: replicon ; result: 0.1–1 µM
CCCCOC(=O)[C@H](C)NP(=O)(/C=C/[C@@H]1C[C@@H](O)[C@H](n2cnc3c(N)ncnc32)O1)N[C@@H](C)C(=O)OCCCC ; method: replicon ; result: <10 µM
CC[C@@H]1C[C@]1(NC(=O)C1CC(Oc2cc(-c3csc(NC(C)C)n3)nc3c(Cl)c(OCCN4CCCCC4)ccc23)CN1C(=O)[C@@H](NC(=O)C1C[C@@H]2C[C@@H]2C1)C(C)(C)C)C(=O)O ; cell line: Huh-luc ; method: replicon ; strain or isolate: 1b ; result: 0.0075 µM
CC1(C)CC(=O)C2=C(C1)Nc1c(O)cccc1N(C(=O)C(=O)N1CCCCC1)C2c1ccc(OCc2ccccc2)cc1F ; method: luciferase / reporter gene / replicon ; strain or isolate: 1b ; result: 1.95 µM
COc1ccc(N=C2SC(c3ccc(NC(=O)[C@@H](C)NC(=O)OCc4ccccc4)cc3)C(=O)N2Cc2ccco2)cc1F ; cell line: Huh7 ; method: replicon ; result: 0.1–1 µM
CCCCOC(=O)[C@H](C)NP(=O)(/C=C/[C@H]1O[C@@H](n2cnc3c(=O)[nH]c(N)nc32)[C@H](O)[C@@H]1O)N[C@@H](C)C(=O)OCCCC ; method: replicon ; result: >100 µM
CC[C@@H]1C[C@]1(NC(=O)C1CC(Oc2cc(-c3csc(NC(C)C)n3)nc3c(Cl)c(OC)ccc23)CN1C(=O)[C@@H](NC(=O)C1C[C@@H]2C[C@@H]2C1)C(C)(C)C)C(=O)O ; cell line: Huh-luc ; method: replicon ; strain or isolate: 1b ; result: 0.009 µM
O=C(Nc1ccc(C2SC(=Nc3ccc(N4CCOCC4)cc3)N(Cc3cccnc3)C2=O)cc1)[C@H]1CCCN1C(=O)OCc1ccccc1 ; cell line: Huh7 ; method: replicon ; result: 0.1–1 µM
CC(C)C(=O)N1c2cccc(O)c2NC2=C(C(=O)CC(C)(C)C2)C1c1ccc(COc2ccccc2)o1 ; method: luciferase / reporter gene / replicon ; strain or isolate: 1b ; result: 3.68 µM
COC(=O)N[C@H](C(=O)N1CC2(CC2)C[C@H]1c1ncc(-c2ccc3c(c2)C(F)(F)c2cc(-c4ccc5nc([C@@H]6[C@H]7CC[C@H](C7)N6C(=O)[C@@H](NC(=O)OC)C(C)C)[nH]c5c4)ccc2-3)[nH]1)C(C)C ; cell line: HCV replicon ; method: replicon ; strain or isolate: Genotype 3 ; result: 0.041 µM
CCCC(NC(=O)[C@@H]1C2CCCC2CN1C(=O)[C@@H](NC(=O)[C@@H](NC(=O)CCCCc1nn[nH]n1)C(C)C)C(C)C)C(=O)C(=O)NC1CC1 ; result: >50 µM
O=C(Nc1ccc(C2SC(=Nc3cccc4ccncc34)N(Cc3ccco3)C2=O)cc1)[C@H]1CCCN1C(=O)OCc1ccccc1 ; cell line: Huh7 ; method: replicon ; result: <0.1 µM
CCCC(NC(=O)[C@@H]1[C@H]2CCC[C@H]2CN1C(=O)[C@@H](NC(=O)[C@@H](NC(=O)c1cnccn1)C(C)(C)C)C(C)(C)C)C(=O)C(=O)NC1CC1 ; cell line: Huh7 ; method: replicon ; result: 1.7 µM
COc1ccc2c(c1)c(Sc1ccc(C)cc1)cc(=O)n2C ; cell line: Huh-Luc-Neo ; method: luciferase / replicon ; result: <1 µM
C[C@@]1(O)[C@H](O)[C@@H](/C=C/P(=O)(O)O)O[C@H]1n1nnc2c(N)ncnc21 ; method: replicon ; result: >100 µM
Cc1cccnc1C(=O)N1c2cccc(O)c2NC2=C(C(=O)CC(C)(C)C2)C1c1ccc(OCc2ccccc2)cc1F ; method: luciferase / reporter gene / replicon ; strain or isolate: 1b ; result: 1.12 µM
CCCC(NC(=O)[C@@H]1C[C@@H](OC(=O)N2CCc3ccccc3C2)CN1C(=O)[C@@H](NC(=O)[C@@H](NC(=O)CCCCn1cnnn1)C(C)C)C(C)C)C(=O)C(=O)NC1CC1 ; result: >50 µM
CC1=CN(c2ccc([N+](=O)[O-])cc2)[C@@H](c2ccc(Cl)cc2)[C@@H](C)C1=O ; cell line: Huh7 ; method: replicon ; strain or isolate: 1b ; result: 22.7 µM
CCC[C@H](NC(=O)[C@@H]1C2CCCC2CN1C(=O)[C@@H](NC(=O)[C@@H](NC(=O)c1cnccn1)C(C)(C)C)C(C)(C)C)C(=O)C(=O)NC1CC1 ; cell line: Huh7 ; method: replicon ; result: 1 µM
C[C@H](OCc1ccccc1)[C@@H](NC(=O)OC(C)(C)C)C(=O)Nc1ccc(Sc2cc(=O)n(C)c3ccccc23)cc1 ; cell line: Huh-Luc-Neo ; method: luciferase / replicon ; result: 1–10 µM
O=C(C(=O)N1CCC[C@@H]1C(=O)Nc1ccc(C2SC(=Nc3ccc(N4CCOCC4)cc3)N(Cc3ccccn3)C2=O)cc1)c1ccccc1 ; cell line: Huh7 ; method: replicon ; result: <0.1 µM
Cn1c(=O)cc(Sc2ccccc2F)c2ccccc21 ; cell line: Huh-Luc-Neo ; method: luciferase / replicon ; result: 1–10 µM
COCC(=O)N1c2cccc(O)c2NC2=C(C(=O)CC(C)(C)C2)[C@@H]1c1ccc(OCc2ccccc2)cc1F ; method: luciferase / reporter gene / replicon ; strain or isolate: 1b ; result: 0.65 µM
CCn1c(=O)cc(Sc2ccc(Br)cc2)c2ccccc21 ; cell line: Huh-Luc-Neo ; method: luciferase / replicon ; result: 1–10 µM
CCCC(NC(=O)[C@@H]1C2CCCC2CN1C(=O)[C@@H](NC(=O)[C@@H](NC(=O)CCCCc1nn[nH]n1)C(C)C)C(C)C)C(=O)C(=O)N[C@@H](C)c1ccccc1 ; result: >50 µM
CC1(C)CC(=O)C2=C(C1)Nc1c(O)cccc1N(C(=O)CCC(=O)N1CCCC1)C2c1ccc(OCc2ccccc2)cc1Cl ; method: luciferase / reporter gene / replicon ; strain or isolate: 1b ; result: 9.61 µM
Cn1c(=O)cc(Sc2ccc(F)cc2)c2cc(F)ccc21 ; cell line: Huh-Luc-Neo ; method: luciferase / replicon ; result: 1–10 µM

The last 2 rows once more:

{"structure": "CC1(C)CC(=O)C2=C(C1)Nc1c(O)cccc1N(C(=O)CCC(=O)N1CCCC1)C2c1ccc(OCc2ccccc2)cc1Cl", "method": "luciferase / reporter gene / replicon", "strain or isolate": "1b", "result": "9.61 µM"}
{"structure": "Cn1c(=O)cc(Sc2ccc(F)cc2)c2cc(F)ccc21", "cell line": "Huh-Luc-Neo", "method": "luciferase / replicon", "result": "1–10 µM"}